## PSTVd loop 6 mutant pool in Nicotiana benthamiana

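A pool of all variants was put on leaves of three Nicotiana benthamiana plants. Samples came from the inoculated region at 5 days, the leaf margin at 10 and upper systemic leaves at 12.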

The pool varies loop 6 of the PSTVd intermediate strain in the pattern UNNNCGNNNG; wild type is UGACCGCGAG (upper and lower strand joined, each 5' to 3', the first 5 letters being the upper strand, closing pairs included).

Values are reads per thousand in the sample; higher means more abundant, 0 means not found.
Each site shows the three plants.
"Pool" is the share in the plasmid pool used as inoculum, on the same scale.
The inoculated region was read from the minus strand, the other sites from the plus strand.
IR is the inoculated region, LM the leaf margin, Sys the systemic leaves.
For reference, wild type rose from 20.7 per thousand in the pool to 195, 198, 203 (inoculated region), 629, 591, 734 (leaf margin) and 942, 870, 868 (systemic leaves).
Sequences that differ at fixed positions probably stem from PCR or sequencing errors, and defective variants can be carried along by functional ones.
With 36,220-57,551 reads a sample, very low values are single reads.

sequence,pool,IR,LM,Sys
UGGACGCGAU,0.0131,0.591 / 0.844 / 0.461,0.166 / 0.126 / 0.0928,0 / 0 / 0
UGGACGCGCG,0.144,0.0869 / 0.0898 / 0.0369,0 / 0 / 0,0 / 0 / 0
UGGACGCGGG,0.275,0.122 / 0.0359 / 0.0553,0.0276 / 0 / 0.0464,0 / 0 / 0
UGGACGCGUG,0.131,0.608 / 0.701 / 0.516,0.0552 / 0.0252 / 0,0 / 0 / 0
UGGACGCUAG,0.131,0.0869 / 0.126 / 0.111,0.0276 / 0 / 0.0232,0 / 0 / 0
UGGACGCUCG,0.340,0.139 / 0.0539 / 0.129,0 / 0 / 0,0 / 0 / 0
UGGACGCUGG,0.157,0.0869 / 0.126 / 0.0738,0 / 0 / 0.0464,0 / 0 / 0
UGGACGCUUG,0.327,0.139 / 0.144 / 0.0738,0 / 0 / 0.0232,0 / 0 / 0
UGGACGGAAG,0.209,0.104 / 0.0898 / 0.111,0 / 0 / 0.0232,0 / 0 / 0
UGGACGGACG,0.301,0.104 / 0.108 / 0.129,0 / 0 / 0.0696,0 / 0 / 0
UGGACGGAGG,0.183,0.104 / 0.144 / 0.0369,0 / 0 / 0,0 / 0 / 0
UGGACGGAUG,0.235,0.139 / 0.108 / 0.166,0.0552 / 0 / 0,0 / 0 / 0
UGGACGGCAG,0.118,0.0348 / 0.0898 / 0.111,0 / 0 / 0.0232,0.0359 / 0.0808 / 0.0205
UGGACGGCCA,0.0131,0 / 0 / 0,0 / 0 / 0,0 / 0 / 0
UGGACGGCCG,0.0915,0.0869 / 0.108 / 0.0184,0 / 0 / 0.0232,0 / 0 / 0
UGGACGGCGG,0.222,0.104 / 0.108 / 0.0553,0 / 0 / 0.0232,0 / 0 / 0
UGGACGGCUG,0.209,0.0869 / 0.0719 / 0.129,0 / 0 / 0,0 / 0 / 0
UGGACGGGAG,0.196,0.556 / 0.593 / 0.756,0.248 / 0.227 / 0.139,0.0359 / 0.141 / 0.0820
UGGACGGGCG,0.170,0.0869 / 0.0359 / 0.0922,0 / 0 / 0.0232,0 / 0 / 0
UGGACGGGGG,0.157,0.104 / 0.0719 / 0.0922,0.0276 / 0 / 0,0 / 0 / 0
UGGACGGGUG,0.248,0.643 / 0.772 / 0.461,0.0828 / 0.0252 / 0.116,0 / 0.162 / 0.0205
UGGACGGUAG,0.170,0.122 / 0.126 / 0.0553,0.0552 / 0 / 0.0232,0.0359 / 0.0202 / 0.0205
UGGACGGUCG,0.275,0.0521 / 0.0539 / 0.0922,0 / 0 / 0,0 / 0 / 0
UGGACGGUGG,0.261,0.139 / 0.0898 / 0.111,0 / 0 / 0,0 / 0 / 0
UGGACGGUUG,0.183,0.0869 / 0.0898 / 0.0922,0 / 0 / 0,0 / 0 / 0
UGGACGUAAG,0.131,0.191 / 0.180 / 0.111,0 / 0 / 0,0 / 0 / 0
UGGACGUACG,0.235,0.139 / 0.0719 / 0.0738,0 / 0 / 0,0 / 0 / 0
UGGACGUAGG,0.157,0.156 / 0.0719 / 0.0369,0.0276 / 0 / 0,0 / 0 / 0
UGGACGUAUG,0.379,0.139 / 0.0898 / 0.0738,0.166 / 0 / 0,0 / 0 / 0
UGGACGUCAG,0.248,0.191 / 0.0719 / 0.0738,0 / 0 / 0,0 / 0 / 0
UGGACGUCCG,0.222,0.191 / 0.108 / 0.129,0 / 0 / 0,0 / 0 / 0
UGGACGUCGG,0.196,0.122 / 0.126 / 0.0922,0 / 0 / 0.0232,0 / 0 / 0
UGGACGUCUG,0.235,0.139 / 0.0898 / 0.111,0.0276 / 0 / 0,0 / 0 / 0
UGGACGUGAG,0.157,0.695 / 0.683 / 0.627,0.138 / 0.101 / 0.0928,0 / 0 / 0
UGGACGUGCG,0.144,0.139 / 0.0898 / 0.0369,0 / 0 / 0,0 / 0 / 0
UGGACGUGGG,0.261,0.174 / 0.108 / 0.166,0 / 0 / 0,0 / 0 / 0
UGGACGUGUG,0.431,0.0869 / 0.0898 / 0.111,0.0276 / 0 / 0,0 / 0 / 0
UGGACGUUAG,0.497,0.156 / 0 / 0.0922,0 / 0 / 0.0232,0 / 0 / 0
UGGACGUUCG,0.209,0.0521 / 0.0898 / 0.148,0.0276 / 0 / 0.0232,0.0180 / 0 / 0
UGGACGUUGG,0.235,0.174 / 0.0359 / 0.166,0 / 0 / 0,0 / 0 / 0
UGGACGUUUG,0.379,0.122 / 0.162 / 0.184,0 / 0 / 0,0 / 0 / 0
UGGACUACUA,0.0131,0 / 0 / 0,0 / 0 / 0,0 / 0 / 0
UGGACUGUCC,0.0131,0 / 0 / 0,0 / 0 / 0,0 / 0 / 0
UGGCCACAGG,0.0131,0 / 0 / 0,0 / 0 / 0,0 / 0 / 0
UGGCCGAAAG,0.261,0.0348 / 0.162 / 0.258,0.0552 / 0 / 0.0464,0 / 0 / 0
UGGCCGAACG,0.275,0.122 / 0.216 / 0.203,0 / 0 / 0.0696,0 / 0 / 0
UGGCCGAAGG,0.222,0.139 / 0.108 / 0.240,0 / 0 / 0.0464,0 / 0 / 0
UGGCCGAAUG,0.353,0.104 / 0.162 / 0.184,0 / 0 / 0,0 / 0 / 0
UGGCCGACAG,0.222,0.174 / 0.126 / 0.148,0.0276 / 0 / 0,0 / 0 / 0
UGGCCGACCG,0.170,0.209 / 0.251 / 0.203,0 / 0 / 0.0464,0 / 0 / 0
UGGCCGACGG,0.235,0.0869 / 0.126 / 0.166,0 / 0 / 0.0232,0 / 0 / 0
UGGCCGACUG,0.235,0.0869 / 0.162 / 0.166,0 / 0 / 0.0232,0 / 0 / 0
UGGCCGAGAG,0.314,0.747 / 0.593 / 0.645,0.0828 / 0.101 / 0.0696,0 / 0.0404 / 0.0205

Extract of 3 entries:

For UGGCCGACUG (pool 0.235) the result was IR 0.0869 / 0.162 / 0.166; LM 0 / 0 / 0.0232; Sys 0 / 0 / 0.
For UGGACGUCGG (pool 0.196) the result was IR 0.122 / 0.126 / 0.0922; LM 0 / 0 / 0.0232; Sys 0 / 0 / 0.
For UGGACGGGAG (pool 0.196) the result was IR 0.556 / 0.593 / 0.756; LM 0.248 / 0.227 / 0.139; Sys 0.0359 / 0.141 / 0.0820.

Data from the supplement of Wu et al. 2024, doi:10.1371/journal.ppat.1012142.